Assay results taken from patent publication US5985289, “Haemophilus somnus outer membrane protein extract enriched with iron-regulated proteins” (dated 1999).

Biological target: P. haemolytica leukotoxin (P. haemolytica) (UniProt P16535)
Test: standard ELISA of calf sera, group mean of six control calves

serum of control calves vaccinated with placebo (sterile saline combined with adjuvant, Vaccination Trial C) (polyclonal serum or antibody)
Anti-Leukotoxin Titer at 10 Days After Second Vaccination (mean): 3880 titer
